Anti-infective test results gathered from many reports (values: NIAID ChemDB through PubChem).

Common to all: toxicity to cultured cells; cell line: Huh7; read-out: CC50

CCn: concentration that lowers growth or viability of the cells by n%.

COc1ccc(-c2cnc3nc(N)nc(N4CCN(C(=O)NCCc5cccs5)CC4)c3n2)cc1OC ; method: ATP ; result: <10 µM
CC(C)NC(=O)c1ccc(-c2ccc3nc(N)nc(OC(C)C)c3n2)cc1 ; result: >20 µM
N#Cc1c(Nc2ccc(I)cc2)s[nH]c1=O ; result: >50 µM
CCc1ccc2c(Nc3cc(C)ccc3Sc3ccc(NC(C)=O)cc3)ncnc2n1 ; method: MTT ; result: >12.5 µM
N#Cc1c(NC2C3CC4CC(C3)CC2C4)s[nH]c1=O ; result: >50 µM
COc1ccc(C/C(N)=N/OC(=O)C(c2ccccc2)c2ccccc2)cc1OC ; method: MTS ; result: >100 µM
Cc1ccc(Sc2ccc(O)cc2)c(Nc2ncnc3nc(C)ccc23)c1 ; method: MTT ; result: >100 µM
CN(C)[C@H](C(=O)N1CCC[C@H]1C(=O)Nc1ccc(C#Cc2ccc(NC(=O)[C@@H]3CCCN3C(=O)[C@H](c3ccccc3)N(C)C)cc2)cc1)c1ccccc1 ; method: resazurin ; result: 2.3 µM
CC(=O)Nc1ccc(Sc2ccc(C)cc2Nc2ncnc3nc(C4CCC4)ccc23)cc1 ; method: MTT ; result: 49.2 µM
Cc1cc(F)ccc1-c1cnc2nc(N)nc(N3CCOCC3)c2n1 ; result: >20 µM
CC(C)(C)C(=O)OCOP(=O)(CC[C@H]1O[C@@H](n2cnc3c(N)ncnc32)[C@](C)(F)[C@@H]1O)OCOC(=O)C(C)(C)C ; method: absorbance ; result: >10 µM
Cc1ccccc1Nc1s[nH]c(=O)c1C#N ; result: >50 µM
COCCNc1nc(N)nc2ccc(-c3ccc(NC(=O)OC)cc3)nc12 ; result: >20 µM
Cc1ccc(Sc2ccc(O)cc2)c(Nc2ncnc3nc(N(C)C)ncc23)c1 ; method: MTT ; result: >50 µM
Cc1ccc(/C(N)=N/OC(=O)N2CCOCC2)cc1 ; method: MTS ; result: 48.8 µM
COc1ccc(-c2cnc3nc(N)nc(N4CCN(C(=O)/C=C/c5ccccc5)CC4)c3n2)cc1OC ; method: ATP ; result: <10 µM
CCCc1ccc2c(Nc3cc(C)ccc3Sc3ccccc3)ncnc2n1 ; method: MTT ; result: 11.8 µM
CCN(C)C(C(=O)N1CCC[C@H]1C(=O)Nc1ccc(C#Cc2ccc(NC(=O)[C@@H]3CCCN3C(=O)C(c3ccccc3)N(C)CC)cc2)cc1)c1ccccc1 ; method: resazurin ; result: 4.75 µM
CC(C)C(=O)Nc1ccc(-c2cnc3nc(N)nc(N4CCOCC4)c3n2)cc1 ; result: 10–20 µM
N#Cc1c(NCCc2cccs2)s[nH]c1=O ; result: >50 µM
N/C(=N\OC(=O)N1CCOCC1)c1cccc(C(F)(F)F)c1 ; method: MTS ; result: 55.1 µM
CC(C)(C)C(=O)OCOP(=O)(CC[C@H]1O[C@@H](n2ccc(=O)[nH]c2=O)[C@](C)(F)[C@@H]1O)OCOC(=O)C(C)(C)C ; method: absorbance ; result: >10 µM
CC(=O)N[C@@H](C(=O)N1CCC[C@H]1C(=O)Nc1ccc(C#Cc2ccc(NC(=O)[C@@H]3CCCN3C(=O)[C@H](NC(C)=O)c3ccccc3)cc2)cc1)c1ccccc1 ; method: resazurin ; result: >10 µM
CC(C)Oc1nc(N)nc2ncc(-c3ccc(F)cc3)nc12 ; result: >20 µM
COc1ccc(-c2cnc3nc(N)nc(N4CCN(CCC#N)CC4)c3n2)cc1OC ; method: ATP ; result: 10–20 µM
COC(=O)Nc1ccc(-c2cnc3nc(N)nc(N4CCOCC4)c3n2)cc1 ; result: <10 µM
CC(=O)Nc1ccc(Sc2ccc(C)cc2Nc2ncnc3nc(C)ccc23)cc1 ; method: MTT ; result: >50 µM
Nc1nc(N2CCOCC2)c2nc(-c3ccc(C(F)(F)F)cc3Cl)cnc2n1 ; result: 10–20 µM
COc1ccc(-c2cnc3nc(N)nc(N4CCN(C(=O)c5ccncc5)CC4)c3n2)cc1OC ; method: ATP ; result: 10–20 µM
CC(C)Oc1nc(N)nc2ccc(-c3ccc(C(=O)NC4CC4)c(Cl)c3)nc12 ; result: >20 µM
N#Cc1c(Nc2ccc(Cl)cc2)s[nH]c1=O ; result: >50 µM
N[C@H](C(=O)N1CCC[C@H]1C(=O)Nc1ccc(C#Cc2ccc(NC(=O)[C@@H]3CCCN3C(=O)[C@@H](N)c3ccccc3)cc2)cc1)c1ccccc1 ; method: resazurin ; result: >10 µM
Nc1nc(N2CCOCC2)c2nc(-c3cccnc3)cnc2n1 ; result: 10–20 µM
CCCCCC(=O)N1CCN(c2nc(N)nc3ncc(-c4ccc(OC)c(OC)c4)nc23)CC1 ; method: ATP ; result: 10–20 µM
Nc1nc(OCC2CC2)c2nc(-c3ccc(F)cc3)cnc2n1 ; result: >20 µM
COc1ccc(/C(N)=N/OC(=O)N2CCOCC2)cc1OC ; method: MTS ; result: 100 µM
CN(C)[C@@H](C(=O)N1CCC[C@H]1C(=O)Nc1ccc(C#Cc2ccc(NC(=O)[C@@H]3CCCN3C(=O)[C@@H](c3ccccc3)N(C)C)cc2)cc1)c1ccccc1 ; method: resazurin ; result: 5.39 µM
N/C(=N\OC(=O)N1CCOCC1)c1ccc(Cl)cc1 ; method: MTS ; result: 51 µM
CC(C)C(=O)Nc1ccc(-c2ccc3nc(N)nc(NCCS(C)(=O)=O)c3n2)cc1 ; result: >20 µM
Nc1nc(N2CCOCC2)c2nc(-c3ccn[nH]3)cnc2n1 ; result: >20 µM

Lines come from different laboratories, so protocols vary. a–b is a range or a potency band.